Data taken from paper PMC9863607, “Combined Use of Antimicrobial Peptides with Antiseptics against Multidrug-Resistant Bacteria: Pros and Cons” (Pharmaceutics, 2023).
Peptide text beside a SMILES is read from it.

Test system: drug-resistant clinical isolates and E. coli ML-35p
Assay: Checkerboard titration, all tested bacteria together
Assay type: cell-based
Conditions: planktonic bacteria, Table 2; 16 out of 24, 15 out of 30, 12 out of 30
Method: The mode of interaction of the test substances while applied in combinations was analyzed based on the calculation of the fractional (or combination) indices—the mathematical “embodiment” of the Loewe additivity paradigm that we used for the classification of combination effects in this study. As synergy is generally defined as a greater than additive effect, and antagonism as a lower than additive effect, the main problem is to establish a reference level for this additive effect. The Loewe approach uses the idea of the self-additivity of an individual substance; thus, the individual activity may be regarded as an additivity control. To identify additivity, synergy, or antagonism in Loewe terms, one should choose a fixed level of the studied effect and then compare the doses of individual substances required to reach this level, with the fractional doses of the substances in combination providing the same level of the effect.
In the case of activity testing of combinations toward planktonic bacteria, a checkerboard titration scheme was used to create an array of mixtures of the two substances (A and B) in various concentrations by diluting the first one two-fold row-by-row and the second one column-by-column. The left column and the bottom row contained the dilutions of only one substance (A or B) to control their individual activity levels in every experiment. […]

For `CC[C@H](C)[C@H](NC(=O)[C@H](CCCNC(=N)N)NC(=O)[C@@H](NC(=O)[C@@H]1CCCN1C(=O)[C@@H]1CCCN1C(=O)[C@H](CCCNC(=N)N)NC(=O)[C@H](CCCNC(=N)N)NC(=O)[C@H](Cc1ccccc1)NC(=O)[C@@H]1CCCN1C(=O)[C@H](CC(C)C)NC(=O)[C@H](CCCNC(=N)N)NC(=O)[C@H](Cc1ccccc1)NC(=O)[C@@H](N)CCCNC(=N)N)[C@@H](C)CC)C(=O)N[C@@H](Cc1c[nH]cn1)C(=O)N1CCC[C@H]1C(=O)N1CCC[C@H]1C(=O)N1CCC[C@H]1C(=O)N[C@@H](Cc1ccccc1)C(=O)N[C@@H](Cc1ccc(O)cc1)C(=O)N1CCC[C@H]1C(=O)N1CCC[C@H]1C(=O)N[C@@H](Cc1ccccc1)C(=O)N[C@@H](CCCNC(=N)N)C(=O)N[C@@H](CCCNC(=N)N)C(=O)N[C@@H](Cc1ccccc1)C(=O)N[C@@H](CC(C)C)C(=O)O` [ChBac3.4] (H-RFRLPFRRPPIRIHPPPFYPPFRRFL-OH; N-terminus assumed), the “Share of synergy cases among tested combinations” value was 50%.

With `CC(C)C[C@H](NC(=O)[C@H](CCCNC(=N)N)NC(=O)CNC(=O)CNC(=O)[C@@H](N)CCCNC(=N)N)C(=O)N[C@H]1CSSC[C@@H](C(=O)N[C@H](C(=O)NCC(=O)N[C@@H](CCCNC(=N)N)C(N)=O)C(C)C)NC(=O)[C@H](C(C)C)NC(=O)[C@@H]2CSSC[C@H](NC(=O)[C@H](Cc3ccc(O)cc3)NC1=O)C(=O)N[C@@H](CCCNC(=N)N)C(=O)N[C@@H](CCCNC(=N)N)C(=O)N[C@@H](CCCNC(=N)N)C(=O)N[C@@H](Cc1ccccc1)C(=O)N2` [PG-1, protegrin 1] the “Share of synergy cases among tested combinations” value was 40%.
